Tested on: Rsp (Staphylococcus aureus NCTC8325)
Experiment: EMSA
Conditions: recombinant protein, residues 1-701, protein details: 6xHis (pRSF-Duet), label: biotin (reverse primer), probe letters rebuilt from the primers and the genome

TAGTGTTGTTGTTACTGAGCTGACTATACGTGTTTTCATTTTCATCATCCTTCTATTTTTTAAAACGATTTGAGGAAACAATAATCAATATGTCAATTTAGAATATTGCAGTTGAGACATATCAAATATTTATAATCGTTTATATTAGTATATTTAATGTAGCAACTGATAAATTACTGAGTGATGATGAGTGATTATTTTAAGAATATGTTTTTAACTTTTATTTAAAATTTGAAAGGAAGCATTTCAATTTCGAGGGTTAGTCAAAGTTGAATAAATTCTTTATGAAACAAGGAAAAGACATAGCTAA (double strand) [hla promoter 310 bp]
binding result (dose-dependent, competed by ~100-fold unlabelled probe): binds

GTATTGTTTTTTGAAATACATAGGTTTGAAATCTATATTAATTATGCACCAAATAATTTAATTAGACTCTATCGAAAATTTCCAAATTTTGCTTACTATCTTTCTAATTTTACTTTTATATTGTGCGCAATGCATAAAAACAAGCGTTTTCCTAGGAGTTTTCATTAATTTCTTTTATTTTTCACTATTACCTTTTCAAAAATATTCAACTATAATAGGTATACTATCCATGATTTTAAAAATTTCCATGTTTTACATTTAAATGATAGATTTCAATATATATTAGGCAGGAGAGAGAAATATGACATGCCAACTTAAA (double strand) [rsp promoter 319 bp]
binding result (competed by ~200-fold unlabelled probe): binds

GCCAGCGATGATACCCATTAAGATTACCTCCTTTGCTTATGAGTTAACTTCATTGTACATAGTTATCTTGTGCGTAATTGATTTTTTTCCTAACTTGAATTGTTATGATCATAACTGCGAATTTTTTATTTTAAAAGGACGGGAAATACTGCCTAACTGTACAGGTGCATTTACAAAATCTTTACAATCATTGGTTTAATAGAGGTTAAGCTCATGAATTTGACATGAAGCAGAAATTTAATTATATTTTATGTTATAAGTTTAAAACGAATAACACGTTAGGTCTCGTCTAGGCAAAGCATATTTATGAAGATGAATTGAACAGA (double strand) [psmα promoter 326 bp]
binding result: binds

Reference: PMC7241556
